This is an account of results in PubChem BioAssay AID1745856 (National Center for Advancing Translational Sciences (NCATS), 2022).

The entries are a selection whose mix differs from that of the whole data set. Inconclusive results are not listed. The source made the active and inactive calls. Calls follow the shape of the full dose curve.
% is scaled to controls: 0 for no effect and ±100 for the full control effect.

The test can be described thus: Primary qHTS Assay for Foot and Mouth Disease Virus Antivirals against NCGC Sytravon and CBC Compound Libraries: Firefly Luciferase Signal. Also: nearly all actives have a fitted effect of over 60% in size. The note with it: FMDV antiviral cell assay; at 11.5 µM (top of the series).
With `OCCSCCO`, the activity change, negative = inhibition was inactive: 11.2%.
